Compound potency records, mixed from different reports. Data source: NIAID ChemDB in PubChem.

Shared fields: whole-cell or culture tests; endpoint: EC50

ECn: concentration that inhibits the pathogen or its effect by n%.

{"smiles": "CSc1nsc(-c2ccc(C)cc2)c1C#N", "strain or isolate": "Encephalomyocarditis virus", "cell line": "L929", "method": "plaque count", "species": "Encephalomyocarditis virus", "result": "1 µM"}
{"smiles": "O=C1CCC(N2C(=O)c3ccccc3C2=O)C(=O)N1", "cell line": "MRC-5", "species": "Encephalitozoon intestinalis", "result": ">1 µg/mL"}
{"smiles": "CSc1nsc(-c2ccc(OCCCCOc3ccc(C#N)cc3)cc2)c1C#N", "cell line": "HEP-2/L-929/VERO", "method": "plaque count", "species": "Encephalomyocarditis virus", "result": ">2 µM"}
{"smiles": "N=C(N)c1ccc(CNCCCCCNCc2ccc(C(=N)N)cc2)cc1", "species": "Encephalitozoon cuniculi", "result": "148 µM"}
{"smiles": "CSc1nsc(-c2cccnc2)c1C#N", "strain or isolate": "Encephalomyocarditis virus", "cell line": "L929", "method": "plaque count", "species": "Encephalomyocarditis virus", "result": ">20 µM"}
{"smiles": "CCNCCCCNCCCCNCCCCNCCCCNCCO", "species": "Encephalitozoon cuniculi", "result": "62.5 µM"}
{"smiles": "CCOC(=O)c1ccc(OCCCOc2ccc(-c3snc(SC)c3C#N)cc2)cc1", "cell line": "HEP-2/L-929/VERO", "method": "plaque count", "species": "Encephalomyocarditis virus", "result": ">2 µM"}
{"smiles": "CCNCCCCNC[C@H]1CC[C@@H]1CNCCCCNCC", "species": "Encephalitozoon cuniculi", "result": "325 µM"}
{"smiles": "CSc1nsc(-c2ccc(OCCCOc3ccc(C#N)cc3)cc2)c1C#N", "cell line": "HEP-2/L-929/VERO", "method": "plaque count", "species": "Encephalomyocarditis virus", "result": ">2 µM"}
{"smiles": "CSc1nsc(-c2ccc(OS(=O)(=O)c3ccc(C)cc3)cc2)c1C#N", "strain or isolate": "Encephalomyocarditis virus", "cell line": "L929", "method": "plaque count", "species": "Encephalomyocarditis virus", "result": ">25 µM"}
{"smiles": "CCNCCCCNC/C=C\\CNCCCCNCC", "species": "Encephalitozoon cuniculi", "result": "118 µM"}
{"smiles": "CSc1nsc(-c2ccc(OCc3ccccc3)cc2)c1C#N", "cell line": "HEP-2/L-929/VERO", "method": "plaque count", "species": "Encephalomyocarditis virus", "result": "20 µM"}
{"smiles": "N#Cc1c(-c2ccccc2)nsc1Cl", "strain or isolate": "Encephalomyocarditis virus", "cell line": "L929", "method": "plaque count", "species": "Encephalomyocarditis virus", "result": ">20 µM"}
{"smiles": "CSc1nsc(-c2ccc(OCCCCOc3ccc([N+](=O)[O-])cc3)cc2)c1C#N", "cell line": "HEP-2/L-929/VERO", "method": "plaque count", "species": "Encephalomyocarditis virus", "result": ">0.5 µM"}
{"smiles": "CCNCCCCNC/C=C\\CNCCCCNCCCCNCC", "species": "Encephalitozoon cuniculi", "result": "600 µM"}
{"smiles": "CSc1nsc(-c2ccc(C(F)(F)F)cc2)c1C#N", "strain or isolate": "Encephalomyocarditis virus", "cell line": "L929", "method": "plaque count", "species": "Encephalomyocarditis virus", "result": ">14 µM"}

2 of the rows above, restated:

CCNCCCCNCCCCNCCCCNCCCCNCCO ; species: Encephalitozoon cuniculi ; result: 62.5 µM
CSc1nsc(-c2ccc(OCCCCOc3ccc(C#N)cc3)cc2)c1C#N ; cell line: HEP-2/L-929/VERO ; method: plaque count ; species: Encephalomyocarditis virus ; result: >2 µM

Conditions beyond the fields shown may differ between rows.